Anti-infective test results gathered from many reports (values: NIAID ChemDB through PubChem).

Shared fields: whole-cell or culture tests; organism: Candida albicans; read-out: MIC90

Lines come from different laboratories, so protocols vary. Blank or dashed fields: not listed here. Two numbers with a dash give a range or band. A number after MIC or MFC names an inhibition level or a share of isolates.

compound | strain | method | result
COc1cccc(C=O)c1 | 1131 | agar diffusion / agar | 600–900 µg/mL
CN(C/C=C/C#CC(C)(C)C)Cc1cccc2ccccc12 | 9 clinical isolates | broth dilution | >16 µg/mL
CCC(C)CC(C)CCCCCCCCC(=O)N[C@H]1C[C@@H](O)[C@H](NCCN)NC(=O)[C@@H]2[C@@H](O)CCN2C(=O)[C@H]([C@H](O)CCN)NC(=O)[C@H]([C@H](O)[C@@H](O)c2ccc(O)cc2)NC(=O)[C@@H]2C[C@@H](O)CN2C(=O)[C@H]([C@@H](C)O)NC1=O |  |  | 0.03–1 µg/mL
OC(Cn1cncn1)(Cn1cncn1)c1ccc(F)cc1F | ATCC 10231 |  | >128 µg/mL
Nc1nc(=O)n([C@H]2CS[C@@H](CO)O2)cc1F | 85 strains (fluconazole-resistant) |  | 1 µg/mL
C[C@H](CCC1NC1(C)C)[C@H]1CC[C@]2(C)C3CC=C4C(C)(C)C(O)CC[C@]4(C)C3CC[C@]12C | ATCC 10231 |  | >16 µg/mL
C[C@H]1[C@H](O)[C@@H](C)/C=C/C=C/C=C/C=C/C=C/C=C/C=C/[C@H](O[C@@H]2O[C@H](C)[C@@H](O)[C@H](N)[C@@H]2O)C[C@@H]2O[C@](O)(C[C@@H](O)C[C@@H](O)CC[C@H](O)[C@@H](O)C[C@@H](O)CC(=O)O[C@H]1C)C[C@H](O)[C@H]2C(=O)O | ATCC 90028 | broth dilution | 2 µg/mL
C[C@H]1[C@H](O)[C@@H](C)/C=C/C=C/C=C/C=C/C=C/C=C/C=C/[C@H](O[C@@H]2O[C@H](C)[C@@H](O)[C@H](N)[C@@H]2O)C[C@@H]2O[C@](O)(C[C@@H](O)C[C@@H](O)CC[C@H](O)[C@@H](O)C[C@@H](O)CC(=O)O[C@H]1C)C[C@H](O)[C@H]2C(=O)O | 206 isolates |  | 1 µg/mL
C=C(C)[C@@H]1CC[C@]2(COC(=O)COc3cc(C(C)C)ccc3C)CC[C@]3(C)C(CCC4[C@@]5(C)CC[C@H](O)C(C)(C)C5CC[C@]43C)C12 | ATCC 90028 | broth dilution | 31.4 µg/mL
Cc1nn([C@H](C)[C@](O)(Cn2cncn2)c2ccc(F)cc2F)c2ccc(F)cc12 | ATCC 32033 |  | ≤0.031 µg/mL
COc1cc(/C=C/C=O)cc(OC)c1O | Clinical isolates |  | 62.5–125 µg/mL
C[C@@H](c1ncncc1F)[C@](O)(Cn1cncn1)c1ccc(F)cc1F | 206 isolates |  | 0.06 µg/mL
C[C@@H](c1ncncc1F)[C@](O)(Cn1cncn1)c1ccc(F)cc1F |  |  | 0.03–0.06 µg/mL
CN(C/C=C/C#CC(C)(C)C)Cc1cccc2ccccc12 | CI_3 |  | 4 µg/mL
CCCCCOc1ccc(-c2cc(-c3ccc(C(=O)N[C@H]4C[C@@H](O)[C@@H](O)NC(=O)[C@@H]5[C@@H](O)[C@@H](C)CN5C(=O)[C@H]([C@H](O)CC(N)=O)NC(=O)[C@H]([C@H](O)[C@@H](O)c5ccc(O)c(OS(=O)(=O)O)c5)NC(=O)[C@@H]5C[C@@H](O)CN5C(=O)[C@H]([C@@H](C)O)NC4=O)cc3)no2)cc1 |  |  | 0.015 µg/mL
CC(=O)N1CCN(c2ccc(OC[C@H]3CO[C@](Cn4ccnc4)(c4ccc(Cl)cc4Cl)O3)cc2)CC1 | 106 isolates |  | 64 µg/mL
C[C@H]1[C@H](O)[C@@H](C)/C=C/C=C/C=C/C=C/C=C/C=C/C=C/[C@H](O[C@@H]2O[C@H](C)[C@@H](O)[C@H](N)[C@@H]2O)C[C@@H]2O[C@](O)(C[C@@H](O)C[C@@H](O)CC[C@H](O)[C@@H](O)C[C@@H](O)CC(=O)O[C@H]1C)C[C@H](O)[C@H]2C(=O)O | 85 strains (fluconazole-resistant) |  | 2 µg/mL
Clc1ccc(COC(Cn2ccnc2)c2ccc(Cl)cc2Cl)c(Cl)c1 | 106 isolates |  | 16 µg/mL
CCCCCOc1ccc(-c2ccc(-c3ccc(C(=O)N[C@H]4C[C@@H](O)[C@@H](O)NC(=O)[C@@H]5[C@@H](O)[C@@H](C)CN5C(=O)[C@H]([C@H](C)O)NC(=O)[C@H]([C@H](O)[C@@H](O)c5ccc(O)cc5)NC(=O)[C@@H]5C[C@@H](O)CN5C(=O)[C@H]([C@H](C)O)NC4=O)cc3)cc2)cc1 |  |  | 0.015 µg/mL
C=CCc1ccc(OC)cc1 |  |  | 0.016–0.025 µg/mL
CC(=O)N1CCN(c2ccc(OC[C@H]3CO[C@](Cn4ccnc4)(c4ccc(Cl)cc4Cl)O3)cc2)CC1 | 9 clinical isolates | broth dilution | 0.25 µg/mL
Clc1ccc(C(Cn2ccnc2)OCc2ccc(Sc3ccccc3)cc2)c(Cl)c1 | 106 isolates |  | 8 µg/mL

3 of the rows above, restated:

{"compound": "CCC(C)CC(C)CCCCCCCCC(=O)N[C@H]1C[C@@H](O)[C@H](NCCN)NC(=O)[C@@H]2[C@@H](O)CCN2C(=O)[C@H]([C@H](O)CCN)NC(=O)[C@H]([C@H](O)[C@@H](O)c2ccc(O)cc2)NC(=O)[C@@H]2C[C@@H](O)CN2C(=O)[C@H]([C@@H](C)O)NC1=O", "result": "0.03–1 µg/mL"}
{"compound": "CC(=O)N1CCN(c2ccc(OC[C@H]3CO[C@](Cn4ccnc4)(c4ccc(Cl)cc4Cl)O3)cc2)CC1", "strain": "9 clinical isolates", "method": "broth dilution", "result": "0.25 µg/mL"}
{"compound": "C=C(C)[C@@H]1CC[C@]2(COC(=O)COc3cc(C(C)C)ccc3C)CC[C@]3(C)C(CCC4[C@@]5(C)CC[C@H](O)C(C)(C)C5CC[C@]43C)C12", "strain": "ATCC 90028", "method": "broth dilution", "result": "31.4 µg/mL"}